What was measured:
Test in all cases: western blot
Settings in all cases: one partner purified
[1] = target: envelope (E) protein of DenV3 (Dengue virus 3, strain  …, UniProt P27915)
[2] = target: envelope (E) protein of DenV4 (Dengue virus 4, strain  …, UniProt P09866)
[3] = target: envelope (E) protein of DenV1 (Dengue virus 1, strain  …, UniProt P17763)

Measured: binding result

B1: anti-DenV(E) single domain antibody (sdAb) (VHH)
VHH: QVQLVQSGGEVKKPGASVKVSCKASGYTFTNYGITWVRQAPGQGLEWMGWISAYNGYKSYAQNFQGRVTMTTDTFTSTAYMELRTLRSDDTAVYYCVRLVPKRTATLHYYIDVWGKGTTVTVST
notes: also called anti-DenV(E) sdAb; anti-DenV sdAb
binds: [1] | [2] | [3]

Source: article PMC11968175, “In vitro and in vivo neutralization of Dengue virus by a single domain antibody” (ImmunoHorizons, 2025)
